According to US11542288B2, “Antiviral compounds” (priority 2020, dated 2023):

Legend:
[1] = molecular target: HTLV-1 protease (Human T-cell leukemia virus type I, UniProt Q82134, L40I); settings: 1:1 ratio inhibitor to protease (1 μM), 60 min, 37° C.
[2] = system: SP cells (chronically infected with HTLV-1); assay: SP cell Gag processing (HTLV-1 maturation) immunoblot; assay type: cell-based; settings: SP cell lysates and supernatants, 50 μM or 100 μM

## CCC(CC)CN(C[C@@H](O)[C@H](Cc1ccccc1)NC(=O)O[C@H]1CO[C@H]2OCC[C@H]21)S(=O)(=O)c1ccc(N)cc1
[1]
  inhibition of Gag cleavage and VLP maturation: effectively inhibited Gag cleavage and VLP maturation
[2]
  amount of full-length (FL) Gag and larger size cleavage intermediates (CI): increased
